# Test results from publication PMC6579712 (Xenobiotica; the fate of foreign compounds in biological …, 2018).
# Key:
# [1] = BLT mice and NHPs, p=1.0
# [2] = ARV concentrations in brain tissue and plasma by LC-MS/MS, BLT mice; conditions: BLT vs hu-HSC-RAG
# [3] = ref MacArthur et al. 2008; cited from earlier work
substance,measurement,setting,value
maraviroc [MVC],brain tissue:plasma penetration ratio (median),[1],1
same,fold higher brain tissue penetration in BLT mice compared to hu-HSC-RAG mice,[2],5 fold
same,blood plasma protein binding,[3],~ 76%
